Results from paper PMC8113231 (Nature Communications, 2021).

Experiments:
[1] = tested on: recombinant HA protein (H5 HA)
[2] = tested on: H5N1/Vac-3

CC(C)[C@@H]1NC(=O)[C@H]([C@@H](C)O)NC(=O)[C@H](Cc2ccc(O)cc2)NC(=O)[C@H](Cc2c[nH]cn2)NC(=O)[C@H](CO)N(C)C(=O)[C@H](CO)NC(=O)[C@H](Cc2ccccc2)N(C)C(=O)[C@H](Cc2ccccc2)N(C)C(=O)[C@H](CC(=O)O)NC(=O)CN(C)C(=O)[C@H]([C@@H](C)O)NC(=O)[C@H](Cc2c[nH]c3ccccc23)NC(=O)CSC[C@@H](C(N)=O)NC(=O)[C@H](CCCNC(=N)N)NC(=O)[C@@H]2CCCN2C1=O [iHA-100]
Kd [1]: 1.5 nM
IC50 [2]: 36 nM
